The text below walks through data of ChEMBL document CHEMBL1955767, “Synthesis and biological evaluation of piperidine-substituted triazine derivatives as HIV-1 non-nucleoside reverse transcriptase inhibitors” (Eur J Med Chem, 2012).

The IC50 is the concentration that inhibits the measured activity by half.

This assay addresses Human immunodeficiency virus type 1 reverse transcriptase (Human immunodeficiency virus 1, UniProt Q72547). The assay can be described thus: Inhibition of HIV1 reverse transcriptase assessed as incorporation of biotin-dUTP into poly(rA)-oligo(dT). In outline:
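ELISA-format RT kit with a poly(rA)-oligo(dT) homopolymer template/primer bound to the plate. Wild-type HIV-1 RT activity measured as biotin-dUTP incorporation into the template.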

In the case of `Cc1cc(C#N)cc(C)c1Oc1nc(Nc2ccc(C#N)cc2)nc(N)c1Br` [ETRAVIRINE], the IC50 worked out at 550 nM.
